Compound potency records, mixed from different reports. Data source: NIAID ChemDB in PubChem.

All rows: target-level tests; agent: HIV-1; protein: Reverse transcriptase; measure: IC50

a–b is a range or a potency band. ICn is the concentration giving n% inhibition. Blank or dashed fields: not listed here. Rows are shuffled and stem from different studies.

SMILES | method | changes | strain or isolate | result
CCN1c2ncc(CCOc3ccc(C(=O)O)c4ccccc34)cc2C(=O)N(C)c2ccc(C)nc21 | nucleotide incorporation / radiometric | RT-V106A |  | >1 µM
O=C(CSc1nnnn1-c1ccc(C2CC2)cc1Cl)Nc1ccc(C(=O)NCCc2cc[n+]([O-])cc2)cc1Cl | PicoGreen / fluorescence | RT-K103 Y181C |  | <1 µM
CCN1c2ncc(CCOc3ccc(CC(=O)O)c4c3CCCC4)cc2C(=O)N(C)c2cccnc21 | nucleotide incorporation / radiometric | RT-V106A |  | >1 µM
CC(C)(C)c1ccc(-n2nnnc2SCC(=O)Nc2ccc(NC(=O)CC3CCCC3)cc2Cl)c(Cl)c1 | PicoGreen / fluorescence |  | WT | <1 µM
CCN1c2ncc(CCOc3ccc(/C=C(\C)C(=O)O)c4ccccc34)cc2C(=O)N(C)c2cccnc21 | nucleotide incorporation / radiometric | RT-K103N Y181C |  | 0.1–1 µM
Fc1ccc2c(c1)CN(c1nn3c(C4CC4)nnc3c3ccccc13)CC2 | RT activity / fluorescence |  | IIIB | 0.12 µM
CCN1c2ncc(CCOc3ccc(-c4cccc(CC(=O)O)c4)cc3C)cc2C(=O)N(C)c2cccnc21 | nucleotide incorporation / radiometric |  | IIIB | <0.05 µM
COc1nnc2c3ccccc3c(N3CCc4ccc(N)cc4C3)nn12 | RT activity / fluorescence |  | KER2008 | 4.44 µM
CC(C)(C#Cc1ccc(NC(=O)CSc2nnnn2-c2ccc(C3CC3)cc2Cl)c(Cl)c1)OCCN1CCC1 | PicoGreen / fluorescence | RT-K103 Y181C |  | <1 µM
CCN1c2ncc(CCOc3ccc(CC(=O)NN)c4ccccc34)cc2C(=O)N(C)c2cccnc21 | nucleotide incorporation / radiometric | RT-K103N Y181C |  | <0.1 µM
CC(C)(NC(=O)c1ccc(NC(=O)CSc2nnnn2-c2ccc(C3CC3)cc2Cl)c(Cl)c1)C(=O)O | PicoGreen / fluorescence |  | WT | <1 µM
CCc1cc(NCc2nc3c(C)ccc(C)c3o2)c(=O)[nH]c1C | nucleotide incorporation | RT-Y181I |  | >282 µM
CC(C)(C)c1ccc(-n2nnnc2SCC(=O)Nc2ccc(NC(=O)CCc3ccccc3)cc2Cl)c(Cl)c1 | PicoGreen / fluorescence | RT-K103 Y181C |  | <1 µM
Nc1cc2c(c(N3CCCC3)c1)CCN(c1nn3c(C4CC4)nnc3c3ccccc13)C2 | RT activity / fluorescence |  | 98US_MSC5016 | 20.5 µM
CCN1c2ncc(CCOc3ccc(CCC(=O)O)c4ccccc34)cc2C(=O)Nc2c(C)cc(F)nc21 | nucleotide incorporation / radiometric | RT-Y188L |  | >1 µM
CCN(CC)c1cccnc1N1CCN(C(=O)c2cc3ccccc3[nH]2)CC1 | nucleotide incorporation |  |  | <100 µM
CC(C)(N)C#Cc1ccc(NC(=O)CSc2nnnn2-c2cc(C(C)(C)C)cc(Br)c2Cl)c(Cl)c1 | PicoGreen / fluorescence | RT-K103 Y181C |  | <1 µM
CCN1c2ncc(CCOc3ccc4cc(CC(=O)NN)ccc4c3)cc2C(=O)N(C)c2cccnc21 | nucleotide incorporation / radiometric | RT-Y188L |  | 0.1–1 µM
CCN1c2ncc(CCOc3ccc(N(CC(=O)O)C(C)=O)cc3C)cc2C(=O)N(C)c2cccnc21 | nucleotide incorporation / radiometric |  | IIIB | <0.05 µM
Cc1ccc2c(c1)CCN(c1nn3c(C4CC4)nnc3c3ccccc13)C2 | RT activity / fluorescence |  | 98US_MSC5016 | 0.55 µM
CCN1c2ncc(CCOc3ccc(/C=C/C(=O)O)c4ccccc34)cc2C(=O)Nc2c(C)ccnc21 | nucleotide incorporation / radiometric | RT-K103N Y181C |  | 0.1–1 µM
O=C(CSc1nnnn1-c1cc(C(F)(F)F)ccc1Cl)Nc1ccc(-c2ccc(OCCN3CCCC3)cc2)c(F)c1Cl | PicoGreen / fluorescence |  | WT | <1 µM
CCNc1cccnc1N1CCN(C(=O)c2cc3cc(OC)c(OC)cc3[nH]2)CC1 | nucleotide incorporation |  |  | <100 µM
CC(C)(C#Cc1ccc(NC(=O)CSc2nnnn2-c2ccc(C(C)(C)C)cc2Cl)c(Cl)c1)C(=O)O | PicoGreen / fluorescence | RT-K103 Y181C |  | <1 µM
CCN1c2ncc(CCOc3ccc(-c4cccnc4)cc3C)cc2C(=O)N(C)c2cccnc21 | nucleotide incorporation / radiometric | RT-K103N Y181C | IIIB | <0.05 µM
COc1cccc(-c2nnc3c4ccccc4c(N4CCc5ccccc5C4)nn23)c1 | RT activity / fluorescence |  | IIIB | 88.3 µM
COc1ccc(-c2ccc(NC(=O)CSc3nnnn3-c3ccc(C)cc3Cl)c(Cl)c2)cc1 | PicoGreen / fluorescence |  | WT | <1 µM
CCN1c2ncc(CCOc3ccc(C(=O)N4CCC(C(=O)O)CC4)cc3C)cc2C(=O)N(C)c2cccnc21 | nucleotide incorporation / radiometric | RT-K103N Y181C | IIIB | 0.05–0.1 µM
COc1cc2[nH]c(C(=O)N3CCN(c4ncccc4NC(C)C)CC3)cc2cc1Br | nucleotide incorporation |  |  | <100 µM
CC(C)(C#Cc1ccc(NC(=O)CSc2nnnn2-c2ccc(C3CC3)cc2Cl)c(Cl)c1)OCCN1CCC(O)CC1 | PicoGreen / fluorescence |  | WT | <1 µM
CCN1c2ncc(CCOc3ccc(C(=O)O)c4ccccc34)cc2C(=O)Nc2c(C)ccnc21 | nucleotide incorporation / radiometric | RT-V106A |  | 0.1–1 µM
Cc1nnc2c3ccccc3c(N3CCC4CCCCC4C3)nn12 | RT activity / fluorescence |  | 98US_MSC5016 | 2.63 µM
CN(C)CCNC(=O)COC(C)(C)C#Cc1ccc(NC(=O)CSc2nnnn2-c2ccc(C(C)(C)C)cc2Cl)c(Cl)c1 | PicoGreen / fluorescence |  | WT | <1 µM
CC(C)(C)Nc1nccnc1N1CCN(C(=O)c2cc3cc(F)ccc3[nH]2)CC1 | nucleotide incorporation |  |  | <100 µM
CC(C)(C#Cc1ccc(NC(=O)CSc2nnnn2-c2cc(C(F)(F)F)ccc2Cl)c(Cl)c1)OCCOc1ccncc1 | PicoGreen / fluorescence | RT-K103 Y181C |  | <1 µM
Cc1nnc2c3ccccc3c(N3CCc4ccccc4C3)nn12 | RT activity / fluorescence |  | KER2008 | 0.49 µM

For reference, 4 entries again:

SMILES | method | changes | strain or isolate | result
CC(C)(C)c1ccc(-n2nnnc2SCC(=O)Nc2ccc(NC(=O)CCc3ccccc3)cc2Cl)c(Cl)c1 | PicoGreen / fluorescence | RT-K103 Y181C |  | <1 µM
CCN1c2ncc(CCOc3ccc(-c4cccc(CC(=O)O)c4)cc3C)cc2C(=O)N(C)c2cccnc21 | nucleotide incorporation / radiometric |  | IIIB | <0.05 µM
O=C(CSc1nnnn1-c1ccc(C2CC2)cc1Cl)Nc1ccc(C(=O)NCCc2cc[n+]([O-])cc2)cc1Cl | PicoGreen / fluorescence | RT-K103 Y181C |  | <1 µM
CCN1c2ncc(CCOc3ccc(CC(=O)NN)c4ccccc34)cc2C(=O)N(C)c2cccnc21 | nucleotide incorporation / radiometric | RT-K103N Y181C |  | <0.1 µM